Measurements reported in PubChem BioAssay AID1224833 (University of Georgia, 2016)
In all, the deposit lists about 12,000 reagents; this is an unselected part. In the full data, about 5,600 (46%) are marked active. 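Active calls cover z-scores past 1 in both directions, so they include lowered as well as raised rotavirus replication.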 Unmarked entries are inactive.

Purpose: 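Host factors restraining rotavirus as candidate antiviral genes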 (primary screen)
Cell system: monkey MA104 kidney cells
Knock-down reagent: siRNA pool against human genes, 50 nM
Time to read-out: 48 h knock-down before infection; read 24 h after infection
Conditions: infection with rotavirus strain RV3 two days after transfection; infectious dose for this stage not given
Detection: 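Rotavirus antigen per well by fluorescent immunoassay, normalised to non-targeting control wells on each plate and given as a standard z-score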
Scale: z-score vs non-targeting control: higher = more rotavirus replication than with non-targeting control
Active means: In these data the active calls have z-score vs non-targeting control at about -1 or lower, or at about 1 or higher
Calls: active = z-score beyond 1 either way; inactive = z-score within 1 of zero

Which result is listed for LILRA3 (leukocyte immunoglobulin like receptor A3)?
z-score vs non-targeting control: -0.848

For TMEM47 (transmembrane protein 47), how do the results read?
z-score vs non-targeting control: 0.26

For APOL1 (apolipoprotein L1), what was measured?
z-score vs non-targeting control: -1.69 (active)

For MEF2A (myocyte enhancer factor 2A), what does the deposit list?
z-score vs non-targeting control: -0.898

With PMAIP1 (phorbol-12-myristate-13-acetate-induced protein 1), what does the deposit list?
z-score vs non-targeting control: 0.66

For SEMA4F (ssemaphorin 4F), what does the deposit list?
z-score vs non-targeting control: 0.331

For PTOV1 (PTOV1 extended AT-hook containing adaptor protein), what does the deposit list?
z-score vs non-targeting control: 0.129

What is on record for TMEM232 (transmembrane protein 232)?
z-score vs non-targeting control: -0.478

Which result is listed for ELAVL3 (ELAV like RNA binding protein 3)?
z-score vs non-targeting control: 0.751

For TEX2 (testis expressed 2), what was measured?
z-score vs non-targeting control: -0.819

What did the screen give for SLC2A1?
z-score vs non-targeting control: 1.92 (active)

For UBXN6 (UBX domain protein 6), how do the results read?
z-score vs non-targeting control: 0.746

What did the screen give for CCN5 (cellular communication network factor 5)?
z-score vs non-targeting control: 1.51 (active)

With CCR9 (C-C motif chemokine receptor 9), what was measured?
z-score vs non-targeting control: 1.34 (active)

With MIOS (meiosis regulator for oocyte development), what does the deposit list?
z-score vs non-targeting control: -1.06 (active)

With NFIL3 (nuclear factor, interleukin 3 regulated), what was measured?
z-score vs non-targeting control: 2.47 (active)

For GNG8 (G protein subunit gamma 8), how do the results read?
z-score vs non-targeting control: 0.422

What did the screen give for SHISA5 (shisa family member 5)?
z-score vs non-targeting control: -1.94 (active)

Laid out differently: results already given
SLC2A1
- z-score vs non-targeting control: 1.92 (active)

UBXN6 (UBX domain protein 6)
- z-score vs non-targeting control: 0.746

CCN5 (cellular communication network factor 5)
- z-score vs non-targeting control: 1.51 (active)

The listing continues:
How did the screen score ZNF281 (zinc finger protein 281)?
z-score vs non-targeting control: 0.958

What did the screen give for SCAF11 (SR-related CTD associated factor 11)?
z-score vs non-targeting control: 0.978

How did the screen score THUMPD2 (THUMP domain 2 tRNA and snRNA guanosine methyltransferase)?
z-score vs non-targeting control: -1.37 (active)

Which result is listed for SEPSECS?
z-score vs non-targeting control: 0.804

With LDHC (lactate dehydrogenase C), what was measured?
z-score vs non-targeting control: -0.59

With CNMD (chondromodulin), what does the deposit list?
z-score vs non-targeting control: -0.455

What is on record for FAM120A (family with sequence similarity 120 member A)?
z-score vs non-targeting control: 1.75 (active)

What is on record for PDGFD (platelet derived growth factor D)?
z-score vs non-targeting control: 0.278

With EDN2 (endothelin 2), how do the results read?
z-score vs non-targeting control: 0.358

For ZFHX4 (zinc finger homeobox 4), what was measured?
z-score vs non-targeting control: -1.5 (active)

For LRRC59 (leucine rich repeat containing 59), what was measured?
z-score vs non-targeting control: -0.635

For ZNF431 (zinc finger protein 431), how do the results read?
z-score vs non-targeting control: 0.951

How did the screen score MARCO (macrophage receptor with collagenous structure)?
z-score vs non-targeting control: -0.937

Which result is listed for GCLC (glutamate-cysteine ligase catalytic subunit)?
z-score vs non-targeting control: -0.515
